Results of unrelated studies side by side (data: NIAID ChemDB).

Common to all: growth or infection tests; species: Plasmodium falciparum; endpoint: EC50

Blank or dashed fields: not listed here. ECn is the concentration giving n% inhibition of infection, replication or growth. Rows are shuffled and stem from different studies.

structure	strain or isolate	mutations	read by	result
O=C(CC1CCC2(CC1)OOC1(OO2)C2CC3CC(C2)CC1C3)NCCN1CCCC1	3D7	-	-	0.0012 µM
Cc1ccc2oc(-c3ccc(O)cc3O)nc2c1	Dd2	-	-	>50 µM
CCOC(=O)c1ccc(/C=C/C2CN3CCC2CC3[C@H](O)c2ccnc3ccccc23)cc1	Dd2	-	-	0.176 µM
COc1cc(OC)c(C=C2SC(=O)N(CC(=O)N3CCN(C)CC3)C2=O)c(OC)c1	W2	Chloroquine-resistant	fluorescence	>10 µM
OCCCNc1nc(NCCNc2ccnc3cc(Cl)ccc23)nc(N2CCOCC2)n1	W2	-	-	1.56 µM
C/C=C(\C)C(=O)O[C@@H]1CC([C@@H](O)[C@]2(C)C=C3OC(=O)C4=C3[C@H]2[C@H]2OC(=O)[C@H](C)[C@@H]2[C@H](OC(=O)/C(C)=C/C)C4)=C2C(=O)C=C(C)[C@@H]2[C@H]2OC(=O)[C@H](C)[C@@H]21	-	-	-	1.4 µg/mL
O=CN(O)CCC(c1ccc(Cl)c(Cl)c1)P(=O)(O)O	3D7	-	fluorescence	0.09 µM
Cc1cccc(OC2CCCN(C(=O)c3ccccc3Cl)C2)c1	Dd2	-	-	>50 µM
C[C@H]1[C@@H](OC(=O)CCC(=O)O)O[C@@H]2O[C@@]3(C)CC[C@H]4[C@H](C)CC[C@@H]1[C@@]24OO3	D10	-	-	0.006 µM
COc1cc(/C=C2\CC/C(=C\c3ccc(OCCCn4ccnc4)c(OC)c3)C2=O)ccc1OCCCn1ccnc1	W2	-	-	0.56 µM
COc1ccc(NC(=O)C2C(C(=O)O)[C@@H]3CC[C@H]2O3)cc1	W2	-	-	>500 µM
COc1cc2c(cc1O)[C@@H]1Cc3ccc(OC)c(O)c3CN1CC2	K1CB1	-	-	1.04 µg/mL
Cc1cccc(OCCNC(=O)c2ccc(C)cc2Cl)c1	Dd2	-	-	>50 µM
O=C(C[C@H]1NCCC[C@@H]1O)Cn1cnc2cc(Br)c(Cl)cc2c1=O	3D7	-	microscopy / fluorescence	0.0007 µM
COc1cc(OC)c(C=C2SC(=O)N(CC(=O)N3CCN(C4CCCCC4)CC3)C2=O)c(OC)c1	W2	Chloroquine-resistant	fluorescence	3.56 µM
CS[C@]12C[C@H]3C(=O)C=C[C@H](O)[C@H]3N1C(=O)[C@@]1(SC)C[C@H]3C(=O)C=C[C@H](O)[C@H]3N1C2=O	3D7	-	SYBR Green	4.4 µM
Cc1ccc(NCN2C(=O)c3ccccc3C2=O)cc1	Dd2	-	-	>50 µM
C[C@@H]1CC[C@H]2[C@@H](C)C(=O)O[C@@H]3OC4(C)CC[C@@H]1[C@]32OO4	KAE678R-2	KAE678-resistant pfatp4 A184S/P990R	SYBR Green / fluorescence	0.0334 µM
OCCCCNc1nc(NCCCCNc2ccnc3cc(Cl)ccc23)nc(N2CCCCC2)n1	W2	-	-	0.28 µM
COc1cc(/C=C2\CC/C(=C\c3ccc(OCCCn4ccnc4C)c(OC)c3)C2=O)ccc1OCCCn1ccnc1C	W2	-	-	4.48 µM
CC(C)c1cccc(C=C2SC(=O)N(CC(=O)N3CCN(c4ccccc4)CC3)C2=O)c1	W2	Chloroquine-resistant	fluorescence	>10 µM
O=C1N2[C@@H]3C=CC=C[C@@H]3C[C@@]23SS[C@@]12C[C@H]1C=CC=C[C@H]1N2C3=O	3D7	-	SYBR Green	2.7 µM
C/C=C(\C)C(=O)O[C@@H]1CC(C(=O)O)=C2C(=O)C=C(C)[C@@H]2[C@H]2OC(=O)[C@H](C)[C@@H]21	-	-	-	>5 µg/mL
COc1cc(/C=C2\CC/C(=C\c3ccc(OCCN(C)C)c(OC)c3)C2=O)ccc1OCCN(C)C	D6	-	-	1.14 µM
CC(C)CN1CCN(C(=O)CC2CCC3(CC2)OOC2(OO3)C3CC4CC(C3)CC2C4)CC1	3D7	-	-	0.0014 µM
CCN(CC)CCCC(C)Nc1ccnc2cc(Cl)ccc12	W2	-	-	0.14 µM
CCOC(=O)c1cn(Cc2ccc(F)cc2)c2ccc3nc(-c4ccc(F)cc4)c(-c4ccc(F)cc4)nc3c2c1=O	3D7	-	fluorescence	7.59 µM
O=C1N2[C@H]3[C@@H](C[C@@]24SS[C@@]12C[C@@H]1[C@@H]([C@@H]5C=C[C@H]1OO5)N2C4=O)[C@H]1C=C[C@@H]3OO1	3D7	-	SYBR Green	2.5 µM
CCOC(=O)c1cn(Cc2ccc(F)cc2)c2ccc3nc(-c4ccccc4)c(-c4ccccc4)nc3c2c1=O	3D7	-	fluorescence	6.94 µM
C[C@@H]1CC[C@H]2[C@@H](C)C(=O)O[C@@H]3OC4(C)CC[C@@H]1[C@]32OO4	-	-	schizont maturation	0.0081 µM
CS[C@]12C[C@H]3C=CC=C[C@H]3N1C(=O)[C@@]1(SC)C[C@H]3C=CC=C[C@H]3N1C2=O	3D7	-	SYBR Green	>50 µM
C[C@@H]1CC[C@H]2[C@@H](C)C(=O)O[C@@H]3OC4(C)CC[C@@H]1[C@]32OO4	D6	-	-	0.014 µM
Cc1[nH]ccc2c(C)c3nc4ccccc4c3cc12	K1	-	-	1.4 µM
COc1ccc2nc3cc(Cl)ccc3c(Nc3cc(CN4CCCC4)c(O)c(CN4CCCC4)c3)c2n1	NF54	-	-	0.0049 µM
CCO[C@H]1O[C@@H]2OC3(C)CC[C@H]4[C@H](C)CC[C@@H]([C@H]1C)[C@@]24OO3	W2	-	-	0.005 µg/mL
C[C@@H]1CC[C@H]2[C@@H](C)C(=O)O[C@@H]3OC4(C)CC[C@@H]1[C@]32OO4	FCM29	-	-	0.04 µg/mL
CC(=O)C1C(=O)C=C(C)OC1=O.CCc1nc(N)nc(N)c1-c1ccc(Cl)cc1	Dd2	-	LDH	0.0089 µg/mL
O=C(CC1CCC2(CC1)OOC1(OO2)C2CC3CC(C2)CC1C3)N1CCC(N2CCCC2)CC1	3D7	-	-	0.0012 µM
COc1ccc(C(=O)NCCOc2cccc(C)c2)c(Cl)c1	Dd2	-	-	>50 µM
O=P(O)(O)C(O)(Cc1cccnc1)P(=O)(O)O	3D7	-	-	20.3 µM
OCCCCNc1nc(NCCCNc2ccnc3cc(Cl)ccc23)nc(N2CCOCC2)n1	D6	-	-	0.51 µM
C=C1C(=O)O[C@@H]2/C=C(\COC(C)=O)CC/C=C(/C=O)C[C@@H](O)[C@@H]12	3D7	-	LDH / absorbance	0.92 µg/mL
CCN(CC)CCCC(C)Nc1ccnc2cc(Cl)ccc12	3D7	-	SYBR Green	0.005 µg/mL
OCCCNc1nc(NCCCCNc2ccnc3cc(Cl)ccc23)nc(N2CCOCC2)n1	D6	-	-	0.22 µM
CCc1nc(N)nc(N)c1-c1ccc(Cl)cc1	RSA11	-	-	0.036 µM
C[C@H]1[C@@H](OC(=O)CCC(=O)O)O[C@@H]2O[C@@]3(C)CC[C@H]4[C@H](C)CC[C@@H]1[C@@]24OO3	K1	-	-	0.003 µM
C[C@H]1[C@@H](O)O[C@@H]2OC3(C)CC[C@H]4[C@H](C)CC[C@@H]1[C@@]24OO3	NF54	-	-	0.0011 µM
C=C1CN2CCC34c5ccccc5N5C=C([C@H]6CC7C8=C(CCC7C/C6=C/C)c6ccccc6C8)[C@@H](O)[C@@H]([C@H]53)[C@H]1C[C@H]24	W2	-	-	0.415 µg/mL
CC(C)c1ccc(C2OOC(c3ccc(C=O)cc3)OO2)cc1	D6	-	LDH	6.99 µM
C[C@@H]1O[C@@H](OC[C@H]2O[C@@H](Oc3c(-c4ccc(O)c(O)c4)oc4cc(O)cc(O)c4c3=O)[C@H](O)[C@@H](O)[C@@H]2O)[C@H](O)[C@H](O)[C@H]1O	Clinical isolates	-	-	7.1 µM
CS[C@@]12C[C@H]3C(=O)CC[C@H](O)[C@H]3N1C(=O)[C@]1(SC)C[C@H]3C(=O)CC[C@H](O)[C@H]3N1C2=O	3D7	-	SYBR Green	2.5 µM
Cc1c2ccncc2c(C)c2c1[nH]c1ccccc12	K1	-	-	0.81 µM
CCOC(=O)C1=C(O)CSC1=Nc1ccc(Br)cc1C	3D7	-	-	>20 µM
C[n+]1c2ccccc2c(NC2CCNCC2)c2[nH]c3ccccc3c21.[Cl-]	3D7	-	-	0.087 µM
C=C(C)C1CC[C@]2(C(=O)O)CC[C@@]3(C)[C@]4(C)CC[C@H]5C(C)(C)[C@@H](O)CC[C@]5(C)[C@H]4CC[C@]3(C)[C@@H]12	D10	-	LDH	>200 µM

5 of the rows above, restated:

structure | strain or isolate | mutations | read by | result
C=C(C)C1CC[C@]2(C(=O)O)CC[C@@]3(C)[C@]4(C)CC[C@H]5C(C)(C)[C@@H](O)CC[C@]5(C)[C@H]4CC[C@]3(C)[C@@H]12 | D10 | - | LDH | >200 µM
CS[C@@]12C[C@H]3C(=O)CC[C@H](O)[C@H]3N1C(=O)[C@]1(SC)C[C@H]3C(=O)CC[C@H](O)[C@H]3N1C2=O | 3D7 | - | SYBR Green | 2.5 µM
C/C=C(\C)C(=O)O[C@@H]1CC(C(=O)O)=C2C(=O)C=C(C)[C@@H]2[C@H]2OC(=O)[C@H](C)[C@@H]21 | - | - | - | >5 µg/mL
COc1cc(/C=C2\CC/C(=C\c3ccc(OCCCn4ccnc4)c(OC)c3)C2=O)ccc1OCCCn1ccnc1 | W2 | - | - | 0.56 µM
C[C@@H]1CC[C@H]2[C@@H](C)C(=O)O[C@@H]3OC4(C)CC[C@@H]1[C@]32OO4 | FCM29 | - | - | 0.04 µg/mL